Pooled drug test results. Numbers come from NIAID ChemDB, via PubChem.

Blank or dashed fields: not listed here. MIC50, MIC90 and the like: level of inhibition, or share of isolates inhibited. Fold resistance: result on the changed form divided by that on wild type. Lines come from different laboratories, so protocols vary. ECn: concentration that inhibits the pathogen or its effect by n%. ICn is the concentration giving n% inhibition. Inhibition is in % at the dose shown (toxicity tests: loss of growth or viability).

CO[C@@H]1[C@H](OC(=O)NC(=O)CCl)CC[C@]2(CO2)[C@H]1[C@@]1(C)O[C@@H]1CC=C(C)C ; test: culture ; agent: Encephalitozoon intestinalis ; cells: RK-13 ; read-out: inhibition ; tested at: 0.00005 µg/mL ; result: 47.6%
Nc1ccnc2c1ncn2[C@H]1C=C[C@@H](OCP(=O)(O)O)O1 ; test: culture ; agent: Adenovirus ; strain: adenoid 75 (TYPE 5) ; read by: cytopathic effect ; read-out: EC50 ; result: 100 µg/mL
O=C(Nc1nnc(NCCCNC2CCCCC2)s1)c1ccc(S(=O)(=O)F)cc1 ; test: target ; agent: Human cytomegalovirus ; target: Polymerase ; read-out: IC50 ; result: >25 µM
CCOC(=O)Nc1cc2c(c(N)n1)N=C1c3ccccc3CCC1O2.Cl.Cl ; test: culture ; agent: Encephalitozoon intestinalis ; cells: RK-13 ; read-out: inhibition ; tested at: 10 µg/mL ; result: 61.4%
CC(C)=CCN1Cc2cc(Cl)cc3[nH]c(=S)n(c23)C[C@@H]1C ; test: culture ; agent: HIV-1 ; cells: MT-4 ; read-out: EC95 ; result: 0.8 µM
CC[C@H]1C[C@]1(NC(=O)[C@@H]1C[C@@H]2CN1C(=O)[C@H](C(C)(C)C)NC(=O)OCC(C)(C)CCCCc1cccc3c1CN(C3)C(=O)O2)C(=O)NS(=O)(=O)C1CC1 ; test: host protein ; target: Thrombin ; read by: substrate cleavage ; read-out: IC90 ; result: >100 µM
O=C(Nc1nnc(NC2CCCCCC2)s1)c1ccc(S(=O)(=O)F)cc1 ; test: target ; agent: Human cytomegalovirus ; target: Polymerase ; read-out: IC50 ; result: >25 µM
Cc1cn([C@@H]2O[C@H](CO[Si](C)(C)C(C)(C)C)C3(OS(=O)(=O)C=C3N)[C@H]2O[Si](C)(C)C(C)(C)C)c(=O)n(C)c1=O ; test: target ; agent: HIV ; changes: RT-N137K ; target: Reverse transcriptase ; read by: nucleotide incorporation / radiometric ; read-out: IC50 ; result: 3.3 µM
CCO/N=C/c1ccc(OCCC2CCN(c3ccc(C)nn3)CC2)cc1 ; test: culture ; agent: Rhinovirus ; strain: 6258-CV44 (ICAM-1 receptor group 64) ; cells: KB ; read by: neutral red ; read-out: EC50 ; result: >4.588 µM
O=C(Nc1nnc(NC2CCN(Cc3ccccc3)CC2)s1)c1cc2ccccc2s1 ; test: target ; agent: Human cytomegalovirus ; target: Polymerase ; read-out: IC50 ; result: >25 µM
C[C@H](Cc1ccc(O)c(O)c1)[C@@H](C)Cc1ccc(O)c(O)c1 ; test: culture ; agent: Candida albicans ; strain: ATCC 10231 ; read by: broth dilution ; read-out: MIC100 ; result: 250 µg/mL
CCCCCCCC/C=C/CCCCCCCC(=O)Nc1nnc(NCCN2CCCC2)s1 ; test: target ; agent: Human cytomegalovirus ; target: Polymerase ; read-out: IC50 ; result: <25 µM
COc1ccc(C)c(NCc2cnc3nc(N)nc(N)c3c2C)c1 ; test: culture ; agent: Encephalitozoon intestinalis ; cells: RK-13 ; read-out: inhibition ; tested at: 0.01 µg/mL ; result: 22.6%
CO[P@](=O)(c1cc(C)cc(/C=C/C#N)c1)c1c(C(N)=O)[nH]c2ccc(Cl)cc12 ; test: host protein ; agent: Human ; target: DNA polymerase beta ; read-out: IC50 ; result: >479 µM
CCCCCCCCCCCNc1nnc(NC(=O)c2ccc(Cl)c(Cl)c2)s1 ; test: target ; agent: Human cytomegalovirus ; target: Polymerase ; read-out: IC50 ; result: >25 µM
Nc1nc2c(ncn2[C@H]2CC[C@@H](COP(=O)(O)OP(=O)(O)OP(=O)(O)O)O2)c(=O)[nH]1 ; test: target ; agent: HIV ; changes: RT-N137Y ; target: Reverse transcriptase ; read by: nucleotide incorporation / radiometric ; read-out: fold resistance ; result: 24
O=C(Nc1nnc(NCCC(c2ccccc2)c2ccccc2)s1)c1c(Cl)cccc1Cl ; test: target ; agent: Human cytomegalovirus ; target: Polymerase ; read-out: IC50 ; result: <25 µM
C#CC[C@@H](C(=O)N[C@H](/C=C/C(=O)OCC)C[C@@H]1CCNC1=O)n1cccc(NC(=O)c2cc(C)on2)c1=O ; test: culture ; agent: Rhinovirus ; strain: Serotype 12 ; cells: H1-HELA ; read by: cytopathic effect / XTT ; read-out: inhibition ; tested at: 0.325 µM ; result: 90%
COc1ccc(C)cc1NCc1cnc2nc(N)nc(N)c2c1C ; test: culture ; agent: Encephalitozoon intestinalis ; cells: RK-13 ; read-out: inhibition ; tested at: 0.1 µg/mL ; result: 72.2%
CC[C@H]1C(=O)Nc2ccc(F)cc2N1C(=O)OC(C)C ; test: target ; agent: HIV ; changes: RT-N137Y ; target: Reverse transcriptase ; read by: nucleotide incorporation / radiometric ; read-out: IC50 ; result: 0.008 µM
O=C(Nc1nnc(NCCc2ccccc2)s1)c1ccc2c(c1)C(=O)OC2=O ; test: target ; agent: Human cytomegalovirus ; target: Polymerase ; read-out: IC50 ; result: <25 µM
Nc1ncnc2c1ncn2C[C@@H](CO)OCP(=O)(O)O ; test: culture ; agent: Adenovirus ; strain: Chicago (type 1) ; read by: virus yield ; read-out: EC90 ; result: 1 µg/mL
O=C(Nc1nnc(NCCC(c2ccccc2)c2ccccc2)s1)c1ccc(C(F)(F)F)cc1 ; test: target ; agent: Human cytomegalovirus ; target: Polymerase ; read-out: IC50 ; result: >25 µM
O=C(Nc1ncc([N+](=O)[O-])s1)c1ccccc1O ; test: culture ; agent: Encephalitozoon intestinalis ; cells: RK-13 ; read-out: inhibition ; tested at: 0.1 µg/mL ; result: 40.4%

A second listing of 2 rows from above:

compound,test,agent,strain,changes,cells,target,read by,read-out,tested at,result
C[C@H](Cc1ccc(O)c(O)c1)[C@@H](C)Cc1ccc(O)c(O)c1,culture,Candida albicans,ATCC 10231,-,-,-,broth dilution,MIC100,-,250 µg/mL
CO[C@@H]1[C@H](OC(=O)NC(=O)CCl)CC[C@]2(CO2)[C@H]1[C@@]1(C)O[C@@H]1CC=C(C)C,culture,Encephalitozoon intestinalis,-,-,RK-13,-,-,inhibition,0.00005 µg/mL,47.6%